From PMC7241556

Test system: Rsp (Staphylococcus aureus NCTC8325)
Experiment: EMSA
Conditions: recombinant protein, residues 1-701, protein details: 6xHis (pRSF-Duet), label: biotin (reverse primer), probe letters rebuilt from the primers and the genome

Question: Does “TAGTGTTGTTGTTACTGAGCTGACTATACGTGTTTTCATTTTCATCATCCTTCTATTTTTTAAAACGATTTGAGGAAACAATAATCAATATGTCAATTTAGAATATTGCAGTTGAGACATATCAAATATTTATAATCGTTTATATTAGTATATTTAATGTAGCAACTGATAAATTACTGAGTGATGATGAGTGATTATTTTAAGAATATGTTTTTAACTTTTATTTAAAATTTGAAAGGAAGCATTTCAATTTCGAGGGTTAGTCAAAGTTGAATAAATTCTTTATGAAACAAGGAAAAGACATAGCTAA (double strand) [hla promoter 310 bp]” bind (dose-dependent, competed by ~100-fold unlabelled probe)?
Answer: binds

Question: Does “GTATTGTTTTTTGAAATACATAGGTTTGAAATCTATATTAATTATGCACCAAATAATTTAATTAGACTCTATCGAAAATTTCCAAATTTTGCTTACTATCTTTCTAATTTTACTTTTATATTGTGCGCAATGCATAAAAACAAGCGTTTTCCTAGGAGTTTTCATTAATTTCTTTTATTTTTCACTATTACCTTTTCAAAAATATTCAACTATAATAGGTATACTATCCATGATTTTAAAAATTTCCATGTTTTACATTTAAATGATAGATTTCAATATATATTAGGCAGGAGAGAGAAATATGACATGCCAACTTAAA (double strand) [rsp promoter 319 bp]” bind (competed by ~200-fold unlabelled probe)?
Answer: binds

Question: Does “GCCAGCGATGATACCCATTAAGATTACCTCCTTTGCTTATGAGTTAACTTCATTGTACATAGTTATCTTGTGCGTAATTGATTTTTTTCCTAACTTGAATTGTTATGATCATAACTGCGAATTTTTTATTTTAAAAGGACGGGAAATACTGCCTAACTGTACAGGTGCATTTACAAAATCTTTACAATCATTGGTTTAATAGAGGTTAAGCTCATGAATTTGACATGAAGCAGAAATTTAATTATATTTTATGTTATAAGTTTAAAACGAATAACACGTTAGGTCTCGTCTAGGCAAAGCATATTTATGAAGATGAATTGAACAGA (double strand) [psmα promoter 326 bp]” bind?
Answer: binds
